Results of unrelated studies side by side (data: NIAID ChemDB).

Shared fields: cytotoxicity tests; cell line: HepG2; read-out: CC50

Rows are shuffled and stem from different studies. CCn is the concentration with n% toxicity to the cells. An empty or dashed field is not shown.

smiles	read by	result
CN(C)CCC(O)(c1cccc(F)c1)C1c2ccccc2Sc2ccccc21	resazurin	12 µg/mL
Nc1nc(N)nc(-c2ccc(Oc3ccccc3)cc2)n1	sulforhodamine / absorbance	>286 µM
NCCCOc1ccc2ccc(=O)n(CCN[C@H]3CC[C@H]4[C@@H](C3)OC(=O)N4c3ccc4c(n3)NC(=O)CO4)c2n1	luminescence	>100 µg/mL
CC(C)(C)c1ccc(Oc2ccc(-c3nc(N)nc(N)n3)cc2)cc1	sulforhodamine / absorbance	>239 µM
OCc1cn(-c2ccc(F)cc2)nc1-c1cc(F)c(Cl)cc1Cl	luminescence	>100 µM
O=[N+]([O-])c1ccc(OCc2nn3c(-c4ccc(Br)cc4)nnc3s2)cc1	resazurin	38.39 µM
CCNc1ccnc2sc(C(=O)Cc3ccccc3)c(N)c12	luminescence	61 µM
Nc1ncnc2c1c(-c1ccccc1)cn2[C@@H]1O[C@H](CO)[C@@H](O)C1(F)F	XTT	>10 µM
COc1cc2c(cc1OC)C(CC1(C)OCCO1)=NCC2	-	<7.5 µM
O=[N+]([O-])c1ccc(OCc2nn3c(-c4ccc(Cl)cc4)nnc3s2)cc1	resazurin	10.95 µM
CNC(=O)CCCn1c(NC(C)C)nc2c(c1=O)C[C@@H](C)N(C(=O)c1ccc(Cl)c(C(F)(F)F)c1)C2	luminescence	42.9 µM
Nc1ncnc2c1c(-c1cccs1)cn2[C@@H]1O[C@H](CO)[C@@H](O)C1(F)F	XTT	>10 µM
COc1ccc(C=C2c3ccccc3Sc3ccccc32)cc1C	resazurin	15 µg/mL
COc1ccc2c3c(ccc(OC)c13)C1C3=C(Nc4ncnn41)c1cc(Cl)ccc1OC32	luminescence	>50 µM
COc1cccc(CNCCCNc2ccnc3cc(Cc4cccc(C(F)(F)F)c4)ccc23)c1O	fluorescence	1.72 µM
CC(=O)N1CC[C@@H](NC(=O)C(=O)c2c(C)c(C(=O)Nc3ccc(F)c(C)c3)c(C)n2C)C(F)(F)C1	MTT	>30 µM
Cc1cc(Cl)ccc1Oc1ccc(-c2nc(N)nc(N)n2)cc1	sulforhodamine / absorbance	>244 µM
CC(C)C[C@@H]1NC(=O)[C@H](Cc2c[nH]c3ccccc23)NC(=O)[C@@H](CCCCN)NC(=O)[C@H](CC(N)=O)NC(=O)[C@H](C(C)C)NC(=O)[C@@H](CC(C)C)N(C)C1=O	MTT	>30 µM
CCc1ccc([C@H]2C[C@@H](C(F)(F)F)n3ncc(C(=O)NCc4ccc5c(c4)OCO5)c3N2)cc1	resazurin	>25 µM
COc1ccc(F)cc1CNCCCNc1ccnc2cc(Oc3cccc(N(C)C)c3)ccc12	fluorescence	3.3 µM
CCOC(=O)COc1ccc(CNC(C)C)cc1	-	>20 µM
Cc1cc(NC(=O)c2c(C)c(C(=O)C(=O)NCC(C)(C)O)n(C)c2-c2ccccn2)ccc1F	MTT	>30 µM
CC(C)C[C@@H]1NC(=O)[C@H](Cc2ccc(O)cc2)NC(=O)[C@@H](CCCCN)NC(=O)[C@H](CC(N)=O)NC(=O)[C@H](C(C)C)NC(=O)[C@@H](CC(C)C)NC1=O	MTT	>30 µM
CC(C)N(Cc1cccc(OCCCCCC(=O)OC(=O)O)c1)C(=O)c1ccc(-c2c[nH]c3ccccc23)cc1	-	>20 µM
COc1ccc(F)cc1CNCCCNc1ccnc2cc(Cc3cccc(C(F)(F)F)c3)ccc12	fluorescence	0.44 µM
COC(=O)CCCC1=NCCc2cc(OC)c(OC)cc21	-	<7.5 µM
O=C(CN1CCC(Cc2ccccc2)CC1)Nc1ccc(Cl)cn1	luminescence	21 µM
O=C1COc2ccc(N3C[C@H]4CN(CCn5c(=O)ccc6ccc(Oc7cccnc7)nc65)C[C@@H]4OC3=O)nc2N1	luminescence	>100 µg/mL
CC(C)C[C@@H]1NC(=O)[C@H](Cc2c[nH]c3ccccc23)NC(=O)[C@@H](CC2CCCCC2)NC(=O)[C@H](CCCCN)NC(=O)[C@H](C(C)C)NC(=O)[C@@H](CC(C)C)NC1=O	MTT	>30 µM
COc1ccc(Oc2ccc(-c3nc(N)nc(N)n3)cc2)cc1	sulforhodamine / absorbance	>259 µM
Fc1ccc(Cc2ccc3c(NCCCNCc4ccco4)ccnc3c2)cc1	fluorescence	5.6 µM
C=CCCC1=NCC(OC(C)=O)c2cc(OC)c(OC)cc21	-	<7.5 µM
Cc1cc(NC(=O)c2c(C)c(C(=O)C(=O)NC3(CO)CCN(S(C)(=O)=O)CC3)n(C)c2C)ccc1F	MTT	>30 µM
Nc1ncnc2c1c(-c1ccco1)cn2[C@@H]1O[C@H](CO)[C@@H](O)C1(F)F	XTT	>10 µM
COc1ccc2ccc(=O)n(CCN3C[C@@H]4CN(c5ccc6c(n5)NC(=O)CO6)C(=O)O[C@H]4C3)c2n1	luminescence	>100 µg/mL
O=C(COc1ccc(Br)cc1)N1CCN(c2ccccc2F)CC1	luminescence	57 µM
C#Cc1cn([C@@H]2O[C@H](CO)[C@@H](O)[C@H]2F)c2ncnc(N)c12	XTT	0.52 µM
CNC(=O)c1ccc(-n2c([C@H](O)C(C)C)nc3c(c2=O)C[C@@H](C)N(C(=O)c2ccc(Cl)c(C(F)(F)F)c2)C3)cc1	luminescence	>50 µM
N#Cc1ccc2ccc(=O)n(CCN(CCN)[C@H]3CC[C@H]4[C@@H](C3)OC(=O)N4c3ccc4c(n3)NC(=O)CO4)c2c1	luminescence	>100 µg/mL
OCCCN1c2ccccc2Sc2ccccc21	resazurin	24 µg/mL
Cc1cc(NC(=O)c2c(C)c(C(=O)C(=O)NC3C[C@H]4C[C@@H]3CC4O)n(C)c2C)ccc1F	MTT	>30 µM
CNC(=O)c1ccc(-n2c([C@@H](O)C(C)C)nc3c(c2=O)C[C@@H](C)N(C(=O)c2ccc(Cl)c(C(F)(F)F)c2)C3)cc1	luminescence	>50 µM
Cc1noc(C2(NC(=O)c3c(C)c(C(=O)C(=O)Nc4cccnc4)n(C)c3C)CC2)n1	MTT	>30 µM
CNC(=O)c1ccc(-n2c(NC(C)C)nc3c(c2=O)C[C@@H](C)N(C(=O)c2ccc(Cl)c(C(F)(F)F)c2Cl)C3)c(C(F)F)c1	luminescence	21 µM
Nc1ncnc2c1c(-c1ccsc1)cn2[C@@H]1O[C@H](CO)[C@@H](O)[C@H]1F	XTT	>10 µM
C/C=C/C=C/c1nc2ccc(OC)cc2n2cccc12	MTT / absorbance	8.7 µM
CCCCN1c2ccccc2Sc2ccccc21	resazurin	>32 µg/mL
Nc1ncnc2c1c(I)cn2[C@@H]1O[C@H](CO)[C@@H](O)[C@H]1F	XTT	0.15 µM
Fc1ccc(-c2nnc3sc(COc4ccccc4)nn23)cc1	resazurin	15.19 µM
O=C(NC1CCC1)c1cc2sc(C3CC3)nc2s1	fluorescence	>100 µM
COc1ncc2ccc(=O)n(CCN[C@@H]3CC[C@@H]4[C@@H](C3)OC(=O)N4c3ccc4c(n3)NC(=O)CO4)c2n1	luminescence	>100 µg/mL
C[C@@H]1CN(c2nc3sc(C(=O)N[C@H]4C[C@@H]4C)cc3s2)CCN1C1COC1	fluorescence	>100 µM
CCCN(Cc1ccccc1OCC(=O)OCC)C(=O)c1ccc(-c2ccc3c(c2)OCO3)cc1	-	>20 µM
CCc1c(C(=O)Nc2ccc(F)c(C)c2)c(C)c(C(=O)C(=O)NCC(C)(C)O)n1C	MTT	>30 µM
Nc1nc(N)nc(-c2ccc(Oc3ccc(Cl)cc3Cl)cc2)n1	sulforhodamine / absorbance	>230 µM
O=C(COc1ccc2ccccc2c1)Nc1ccncc1	luminescence	61 µM
CC(C)C[C@@H]1NC(=O)[C@H](Cc2c[nH]c3ccccc23)NC(=O)[C@@H](CCCNC(N)=O)NC(=O)[C@H](CC(N)=O)NC(=O)[C@H](C(C)C)NC(=O)[C@@H](CC(C)C)NC1=O	MTT	>30 µM
Cc1c(Cc2ccccc2)sc(NC(=O)c2ccccc2Cl)c1C(N)=O	luminescence	>100 µM
CCC1(NC(=O)C(=O)c2c(C)c(C(=O)Nc3ccc(F)c(C)c3)c(C)n2C)CCN(c2cnccn2)CC1	MTT	>30 µM
C/C=C/C=C/c1nc2cccc(OC)c2n2cccc12	MTT / absorbance	6.5 µM
Clc1ccc(-c2nnc3sc(COc4ccc(Br)cc4)nn23)cc1	resazurin	29.08 µM
COc1ccc(F)cc1CNCCCNc1ccnc2cc(-c3cc(C(F)(F)F)cc(C(F)(F)F)c3)ccc12	fluorescence	0.87 µM
CCOC(=O)CCCCCOc1cccc(CN(C(=O)c2ccc(-c3ccc(Cl)c(Cl)c3)cc2)C(C)C)c1	-	>20 µM
CCC/C=C/C=C/c1nc2ccccc2n2cccc12	MTT / absorbance	9.3 µM
CCCCCN1C2=C(Sc3ccccc31)C(=O)CCC2	resazurin	>32 µg/mL
C/C=C/C=C/c1nc2ccccc2n2cccc12	MTT / absorbance	10.3 µM
C[C@@H]1CN(c2nc3sc(C(=O)NC4CC5(CC5)C4)cc3s2)CCN1C1COC1	fluorescence	>100 µM
Nc1ncnc2c1c(-c1cc3ccccc3o1)cn2[C@@H]1O[C@H](CO)[C@@H](O)C1(F)F	XTT	>10 µM
Nc1c(C(=O)N2CCCC2)sc2nc(-c3ccccc3)ccc12	luminescence	>100 µM
CCCNCc1ccc(OCC(=O)OCC)cc1	-	>20 µM

The last 7 rows once more:

smiles | read by | result
CCC/C=C/C=C/c1nc2ccccc2n2cccc12 | MTT / absorbance | 9.3 µM
CCCCCN1C2=C(Sc3ccccc31)C(=O)CCC2 | resazurin | >32 µg/mL
C/C=C/C=C/c1nc2ccccc2n2cccc12 | MTT / absorbance | 10.3 µM
C[C@@H]1CN(c2nc3sc(C(=O)NC4CC5(CC5)C4)cc3s2)CCN1C1COC1 | fluorescence | >100 µM
Nc1ncnc2c1c(-c1cc3ccccc3o1)cn2[C@@H]1O[C@H](CO)[C@@H](O)C1(F)F | XTT | >10 µM
Nc1c(C(=O)N2CCCC2)sc2nc(-c3ccccc3)ccc12 | luminescence | >100 µM
CCCNCc1ccc(OCC(=O)OCC)cc1 | - | >20 µM